Where two headings read alike, the source gives them in different places.
Columns and labels:
SARS-Cov-2 3CLpro = SARS-Cov-2 3CLpro (Severe acute respiratory syndrome coronavirus 2, UniProt P0DTD1)
[1] = system: human beta-coronavirus OC43; experiment: OC43 coronavirus antiviral assay in HeLa cells (cytopathic effect, cell-titer-glo)
Procedure: OC43 Coronavirus Assay in HeLa Cells […] HeLa human cervical epithelial cells (ATCC) were used as susceptible host cell lines and were cultured using EMEM media, supplemented with 10% fetal bovine serum (FBS), 1% (v/v) penicillin/streptomycin (P/S), 1% (v/v) HEPES and 1% (v/v) cellgro Glutagro™ supplement (all Corning, Manassas, VA) at 37° C. For the OC43 antiviral assay, 1.5×10^4 HeLa cells per well were plated in 100 μL complete media in white 96-well plates with clear bottoms at 37° C. for up to 24 h to facilitate attachment and allow cells to recover from seeding stresses. Next day, the cell culture medium was removed. Serially diluted compounds in 100 μL assay media (EMEM, 2% FBS, 1% P/S, 1% cellgro Glutagro™ supplement, 1% HEPES) were added to the cells and incubated for 4 H at 37° C. in a humidified 5% CO2 incubator. […] 96-well plates were incubated for 6 (HeLa) days at 33° C.; each plate contains uninfected control wells as well as virus-infected wells that were not treated with compound. Cytotoxicity plates without the addition of OC43 virus were carried out in parallel. At the end of the incubation period, 100 μL cell culture supernatant was replaced with 100 μL cell-titer-glo reagent (Promega, Madison, WI) and incubated for at least 10 min at rt prior to measuring luminescence. Luminescence was measured on a Perkin Elmer (Waltham, MA) Envision plate reader. Antiviral % inhibition was calculated as follows: [(Compound treated cells infected sample)−(no compound infected control)]/[(Uninfected control)−(no compound infected control)]*100; Using GraphPad (San Diego, CA) prism software version 8.3.1, the antiviral dose-response plot was generated as a sigmoidal fit, log(inhibitor) vs response-variable slope (four parameters) model and the EC50 was calculated which is the predicted compound concentration corresponding to a 50% inhibition of the viral cytopathic effect. […]

By UniProt entry, the sequences of proteins in these tests, tags left out. Residues count along the entry.
UniProt P03303, 1538-1719 limits assumed: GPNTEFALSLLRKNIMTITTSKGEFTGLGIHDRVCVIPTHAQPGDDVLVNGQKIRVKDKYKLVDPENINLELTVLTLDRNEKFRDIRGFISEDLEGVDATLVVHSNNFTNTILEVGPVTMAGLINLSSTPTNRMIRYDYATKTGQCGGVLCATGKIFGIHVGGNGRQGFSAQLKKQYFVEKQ

HRV3C = HRV3C (Human rhinovirus 14, UniProt P03303); conditions: read-out: HRV IC50 (bound), 30 mins preincubation, SAMDI-MS
Procedure: SARS-Cov-2 3CLpro and HRV3C Duplex Assay
Protease assays were performed in 384-well low volume polypropylene microtiter plates at ambient temperature. For the duplex assay, 3CLpro and HRV3C was added using a Multidrop Combi (Thermo Scientific; Waltham, MA) and preincubated for 30 mins with small molecules. The reactions were initiated by the addition of the two peptide substrates. The reactions were incubated for 30 mins and quenched by the addition of 0.5% formic acid (final) with subsequent neutralization using 1% sodium bicarbonate (final). Internal standard peptides were added in 20 mM Hepes pH 8.0 for quantitation of the protease products. For SAMDI-MS analysis, 2 μL of each reaction mixture was transferred using a 384-channel automated liquid handler to SAMDI biochip arrays functionalized with a neutravidin-presenting self-assembled monolayer. The SAMDI arrays were incubated for 1 h in a humidified chamber to allow the specific immobilization of the biotinylated peptide substrates, cleaved products and internal standards. The samples were purified by washing the SAMDI arrays with deionized ultrafiltered water and dried with compressed air. A matrix comprising alpha-cyano cinnamic acid in 80% acetonitrile: 20% aqueous ammonium citrate was applied in an automated format by dispensing 50 nL to each spot in the array. SAMDI-MS was performed using reflector-positive mode on an AB Sciex TOF-TOF 5800 System (AB Sciex, Framingham, MA) with 400 shots/spot analyzed in a random raster sampling. For data analysis, area under the curves (peaks) (AUCs) for the product and internal standard were calculated using the TOF/TOF Series Explorer (AB Sciex), and the amount of product formed was calculated using the equation (AUC product/AUC internal standard). The amount of product generated was calculated using the ratio of product area under the curve (AUC) divided by the AUC of the internal standard. […] Assay robustness was determined by Z-Factor. The IC50s were determined by fitting the curves using a four-parameter equation in Graphpad Prism 8. […]

[2] = system: B.1.1.7 lineage SARS-CoV-2; experiment: B.1.1.7 infection model in A549-Dual ACE2 TMPRSS2 cells (MTS)
Procedure: B.1.1.7 Infection Model in A549-Dual ACE2 TMPRSS2 Cells
The A549-dual_ACE2_TMPRSS2 cells (InvivoGen Cat #a549-cov2r) were propagated in the growth medium which was prepared by supplementing DMEM (gibco cat no 41965-039) with 10% v/v heat-inactivated FCS and 10 μg/mL blasticidin (InvivoGen ant-bl-05), 100 μg/mL hygromycin (InvivoGen ant-hg-1), 0.5 μg/mL puromycin (InvivoGen ant-pr-1) and 100 μg/mL zeocin (InvivoGen ant-zn-05) in a humidified 5% CO2 incubator at 37° C. The assay medium was prepared by supplementing DMEM (gibco cat no 41965-039) with 2% v/v heat-inactivated FCS.
The virus isolate used is from the B.1.1.7 lineage (derived from hCoV-19/Belgium/rega-12211513/2020; EPI_ISL_791333,2020-12-21; see Abdelnabi et al., “Comparing infectivity and virulence of emerging SARS-CoV-2 variants in Syrian hamsters” EBioMedicine (2021) June; 68:103403. doi: 10.1016/j.ebiom.2021.103403).
For antiviral testing, cells were seeded in 96-well plates (Falcon) at a density of 15,000 cells per well in assay medium. After overnight growth, cells were treated with the indicated compound concentrations and infected with a MOI of 0.001 TCID50/cell (final volume 200 μL/well in assay medium). On day 4 p.i. differences in cell viability caused by virus-induced CPE or by compound-specific side effects are analyzed using MTS as described previously (PMID: 22575574).
Table 4 indicates related EC50 and CC50 values for the tested compounds ‘A’ indicates an EC50<100 nM, ‘B’ indicates an EC50 of ≥100 nM and <1000 nM, ‘C’ indicates an EC50≥1000 nM and <10000 nM. For CC50, the values are reported in micromolar (μM). ‘A’ indicates a CC50≥10 μM. ‘B’ indicates a CC50≥1 μM and <10 μM.

[3] = read-out: SARS-Cov-2 IC50 (class), 3CLpro, 30 mins preincubation, SAMDI-MS
[4] = read-out: EC50 (class), 6 days at 33° C.
[5] = read-out: A549-dual_ACE2_TMPRSS2 (EC50), MOI 0.001 TCID50/cell, day 4 p.i.

SMILES | IC50 (SARS-Cov-2 3CLpro; [3]) [nM] | EC50 [1, 4] [nM] | IC50 (HRV3C) [nM] | EC50 [2, 5] [nM] | IC50 (SARS-Cov-2 3CLpro; read-out: SARS-Cov-2 IC50 (bound)) [nM] | EC50 ([1]; read-out: EC50 (bound), 6 days at 33° C.) [nM] | EC50 ([2]; read-out: A549-dual_ACE2_TMPRSS2 (EC50), MOI 0.001 TCID50/cell, day 4 p.i., numeric bounds given instead of class symbols) [nM]
CC(C)(C)[C@H](NC(=O)C(F)(F)F)C(=O)N1C[C@H]2[C@@H]([C@H]1C(=O)N[C@H](C#N)CC1CC3(CC(F)(F)C3)NC1=O)[C@H]1C=C[C@@H]2C1 (single isomer, unassigned) [83b] | < 20 | < 100 | > 500 | < 100 | – | – | –
CC(C)(C(NC(=O)C(F)(F)F)C(=O)N1C[C@H]2[C@@H]([C@H]1C(=O)N[C@H](C#N)C[C@@H]1CCNC1=O)[C@H]1C=C[C@@H]2C1)C(F)(F)F (stereo partly drawn) | – | – | > 500 | – | > 500 | > 1000 | > 1000
CC(C)(C)[C@H](NC(=O)C(F)(F)F)C(=O)N1C[C@H]2[C@@H]([C@H]1C(=O)N[C@H](C#N)CC1CC3(CC(F)(F)C3)NC1=O)[C@H]1C=C[C@@H]2C1 (single isomer, unassigned) [83a] | < 20 | < 100 | > 500 | < 100 | – | – | –

Reference: US12252481B2, “Anti-viral compounds” (Aligos Therapeutics, Inc., priority 2021, dated 2025)
